A mixed list of measured activities; the numbers were collected in NIAID ChemDB.

Shared fields: tests in culture; organism: HIV-2

Blank or dashed fields: not listed here. Conditions beyond the fields shown may differ between rows. ECn: concentration that inhibits the pathogen or its effect by n%.

smiles | cells | strain | read-out | read by | value
Cc1c(C(C)CC2CCCCC2)nc(SCC(=O)c2ccc(O)cc2)[nH]c1=O | MT-4 | ROD | EC50 | MTT | 24 µM
Cc1cn([C@H]2C=C[C@@H](COP3(=O)Oc4ccccc4C(CCl)O3)O2)c(=O)[nH]c1=O | CEM + CEM TK- | - | EC50 | - | 22 µM
C#C[C@]1(CO)O[C@@H](n2cnc3c(=O)[nH]cnc32)C[C@@H]1O | HeLa | EHO | EC50 | β-galactosidase | 0.37 µM
CCc1c(CC2CCCCC2)nc(SCC(=O)c2ccccc2)[nH]c1=O | MT-4 | ROD | EC50 | MTT | 263 µM
CCc1c(Sc2ccccc2)n(COCc2ccccc2)c(=O)[nH]c1=O | MT-4 | ROD | EC50 | cytopathic effect / MTT | >30 µM
CCCC(C)(C)[Si](C)(C)OC[C@H]1O[C@@H](n2cc(C)c(=O)n(CC(=O)O)c2=O)[C@H](O[Si](C)(C)C(C)(C)CCC)[C@@H]1O | MT-4 | ROD | EC50 | cytopathic effect / trypan blue | >10 µM
Cc1cn([C@H]2C[C@H](N=[N+]=[N-])[C@@H](CO)O2)c(=O)nc1NN(C)C | MT-4 | ROD | EC50 | MTT / ELISA | 0.015 µM
CCCN(C)C(=O)Oc1nsnc1-c1c(Cl)cccc1Cl | MT-4 | EHO | EC50 | cytopathic effect | >28.5 µM
CCc1c(CCC2CCCCC2)nc(SCC(=O)c2ccccc2)[nH]c1=O | MT-4 | ROD | EC50 | MTT | 241 µM
C#C[C@]1(CO)O[C@@H](n2cc(C)c(=O)[nH]c2=O)C[C@@H]1O | HeLa | ROD | EC50 | β-galactosidase | 0.34 µM
CCCCCCCCCCCCCCCCOP(=O)(O)OC[C@H]1O[C@@H](n2cc(C)c(=O)[nH]c2=O)C[C@@H]1N=[N+]=[N-] | CEM + CEM/O | ROD | EC50 | syncytia | 0.17 µM
CN(C)c1ncnc2c1ncn2[C@@H]1O[C@H](CO[Si](C)(C)C(C)(C)C)C2(OS(=O)(=O)C=C2N)[C@H]1O[Si](C)(C)C(C)(C)C | MT-4 | ROD | EC50 | trypan blue | >4 µg/mL
CN(C)c1ccc(C2SCC(=O)N2c2ccccn2)cc1 | MT-4 | ROD | EC50 | cytopathic effect | 81.5 µM
Cc1cc(C(O)c2ccc3ccccc3c2)nc(Nc2ccc(C#N)cc2)n1 | MT-4 | ROD | EC50 | MTT | >31.2 µM
Cc1cn([C@H]2C=C[C@@H](COP(=O)(O)O)O2)c(=O)[nH]c1=O | CEM | ROD | EC50 | MTT | 1.64 µM
CCc1cn([C@@H]2O[C@H](CO[Si](C)(C)C(C)(C)C)[C@@H](O)[C@H]2O[Si](C)(C)C(C)(C)C)c(=O)n(CC(=O)O)c1=O | MT-4 | ROD | EC50 | cytopathic effect / trypan blue | >2 µM
O=c1ccn([C@H]2CC[C@@H](CO)O2)c(=O)[nH]1 | MT-4 | ROD | EC50 | cytopathic effect / trypan blue | 174 µM
CNc1ccc(Cl)cc1S(=O)(=O)c1ccccc1[N+](=O)[O-] | CEM + CEM-SS | ROD | EC50 | XTT | >100 µM
N#CC[C@H](C1CCCC1)n1cc(-c2ncnc3[nH]ccc23)cn1 | PBMC | - | EC50 | p24 / ELISA | 0.02 µM
CNc1ncnc2c1ncn2[C@@H]1O[C@H](CO[Si](C)(C)C(C)(C)C)C2(OS(=O)(=O)C=C2N)[C@H]1O[Si](C)(C)C(C)(C)C | MT-4 | ROD | EC50 | trypan blue | >4 µg/mL
CCOP(=O)(O)COCCn1nnc2c(N)ncnc21 | MT-4 | - | EC50 | cytopathic effect / MTT | >331 µM
COC(=O)CCn1c(=O)c(C)cn([C@@H]2O[C@H](CO[Si](C)(C)C(C)(C)C)[C@@H](O)[C@H]2O[Si](C)(C)C(C)(C)C)c1=O | CEM | ROD | EC50 | syncytia | >10 µM
COc1ccc(C(=O)CSc2nc(C(C)CC3CCCCC3)c(C)c(=O)[nH]2)cc1 | MT-4 | ROD | EC50 | MTT | 43 µM
Cc1cc(C)c(Nc2nc(NC3CCN(Cc4ccccc4)CC3)nc3nc[nH]c23)c(C)c1 | MT-4 | ROD | EC50 | MTT | >25.95 µM
Cc1cn([C@H]2C=C[C@@H](COP3(=O)OCc4c(ccc5ccccc45)O3)O2)c(=O)[nH]c1=O | CEM + CEM/O | - | EC50 | - | 0.17 µM
O=C1CSC(c2c(F)cccc2Cl)N1Cc1ccco1 | MT-4 | ROD | EC50 | cytopathic effect | 30.5 µM
Cc1cn([C@H]2C[C@H](N=[N+]=[N-])[C@@H](CO)O2)c(=O)[nH]c1=O | MT-4 | ROD | EC50 | cytopathic effect / MTT | 0.014 µg/mL
Cc1cn([C@@H]2O[C@H](COC(=O)c3ccccc3)[C@@H](O)[C@H]2OC(=O)c2ccccc2)c(=O)n(CC(=O)O)c1=O | CEM | ROD | EC50 | syncytia | >50 µM
C#C[C@]1(CO)O[C@@H](n2cnc3c(N)ncnc32)C[C@@H]1O | HeLa | EHO | EC50 | β-galactosidase | 0.001 µM
N#Cc1ccc(Nc2nccc(C(O)c3ccc4ccccc4c3)n2)cc1 | MT-4 | ROD | EC50 | MTT | >35.5 µM
C#C[C@]1(CO)O[C@@H](n2ccc(N)nc2=O)[C@@H](O)[C@@H]1O | HeLa | ROD | EC50 | β-galactosidase | 0.012 µM
Cc1cn([C@H]2C[C@H](F)[C@@H](CO)O2)c(=O)[nH]c1=O | PBMC | 1010 | EC50 | ELISA | 0.008 µM
CSc1ccc(OP(=O)(OC[C@@H]2C=C[C@H](n3cc(C)c(=O)[nH]c3=O)O2)OC[C@@H]2C=C[C@H](n3cc(C)c(=O)[nH]c3=O)O2)cc1 | MT-4 | ROD | EC50 | cytopathic effect / trypan blue | 45 µM
Nc1nc2c(nnn2CCOCP(=O)(O)O)c(=O)[nH]1 | MT-4 | - | EC50 | cytopathic effect / MTT | 6.2 µM
Cc1cn([C@H]2CC[C@@H](COP(=O)(OC[C@@H]3CC[C@H](n4cc(C)c(=O)[nH]c4=O)O3)Oc3ccc(S(C)(=O)=O)cc3)O2)c(=O)[nH]c1=O | MT-4 | ROD | EC50 | cytopathic effect / trypan blue | 206 µM
Cc1cn([C@H]2C=C[C@@H](COP3(=O)Oc4cccc(Cl)c4C(C)O3)O2)c(=O)[nH]c1=O | CEM + CEM/O | - | EC50 | - | 0.25 µM
Cc1cn([C@@H]2O[C@H](CO[Si](C)(C)C(C)(C)C)[C@@H](O[Si](C)(C)C(C)(C)C)[C@H]2O)c(=O)n(CCO)c1=O | CEM | ROD | EC50 | syncytia | >50 µM
Cc1cn([C@H]2C=C[C@@H](COP3(=O)OCc4ccc5ccccc5c4O3)O2)c(=O)[nH]c1=O | CEM + CEM TK- | - | EC50 | - | 0.6 µM
CC(CC1CCCCC1)c1cc(=O)[nH]c(SCC(=O)c2ccc(O)cc2)n1 | MT-4 | ROD | EC50 | MTT | 31 µM
COC(=O)c1ccc(CN2CCC(Nc3nc(Nc4c(C)cc(C)cc4C)c4[nH]cnc4n3)CC2)cc1 | MT-4 | ROD | EC50 | MTT | >24.06 µM
Nc1ccn([C@H]2CC[C@@H](CO)O2)c(=O)n1 | MT-4 | ROD | EC50 | MTT | 1.56 µM
Cc1cn([C@H]2C=C[C@@H](CO)O2)c(=O)[nH]c1=O | CEM/TK- | ROD | EC50 | MTT | 217 µM
Nc1nc2nn(CCOCP(=O)(O)O)nc2c(=O)[nH]1 | MT-4 | - | EC50 | cytopathic effect / MTT | >315 µM
Cc1cccc(N2C(=O)CSC2c2ccc(N(C)C)cc2)n1 | MT-4 | ROD | EC50 | cytopathic effect | 102 µM
CS(=O)(=O)c1ccc(OP(=O)(OC[C@@H]2C=C[C@H](n3cnc4c(=O)[nH]cnc43)O2)OC[C@@H]2C=C[C@H](n3cnc4c(=O)[nH]cnc43)O2)cc1 | MT-4 | ROD | EC50 | cytopathic effect / trypan blue | >250 µM
CCCCCCCCCCCCOCCOP(=O)(O)OC[C@H]1O[C@@H](n2cc(C)c(=O)[nH]c2=O)C[C@@H]1N=[N+]=[N-] | CEM + CEM TK- | ROD | EC50 | syncytia | >40 µM
Cc1cc(C)c(CN2CCC(Nc3nc(Nc4c(C)cc(C)cc4C)c4[nH]cnc4n3)CC2)c(C)c1 | MT-4 | ROD | EC50 | MTT | >4.8 µM
CCCCCCCCCCCCCCOCCOP(=O)(O)OC[C@H]1O[C@@H](n2cc(C)c(=O)[nH]c2=O)C[C@@H]1N=[N+]=[N-] | CEM + CEM/O | ROD | EC50 | syncytia | 0.144 µM
Cc1cn([C@H]2C[C@H](N=[N+]=[N-])[C@@H](CO)O2)c(=O)[nH]c1=O | MT-4 | ROD | EC50 | MTT | 0.007 µM
CSc1ccc(OP(=O)(OC[C@@H]2C=C[C@H](n3cnc4c(N)ncnc43)O2)OC[C@@H]2C=C[C@H](n3cnc4c(N)ncnc43)O2)cc1 | MT-4 | ROD | EC50 | cytopathic effect / trypan blue | 89 µM
Cc1c(CCC2CCCCC2)nc(SCC(=O)c2ccc(O)cc2)[nH]c1=O | MT-4 | ROD | EC50 | MTT | 8.2 µM
Nc1ncnc2nnn(CCOCP(=O)(O)O)c12 | MT-4 | - | EC50 | cytopathic effect / MTT | >365 µM
Cc1cn([C@H]2C[C@H](N=[N+]=[N-])[C@@H](CO)O2)c(=O)[nH]c1=O | PBMC | - | EC90 | p24 / ELISA | 0.01 µM
Cc1c(C(C)C2CCCCC2)nc(SCC(=O)c2ccccc2)[nH]c1=O | MT-4 | ROD | EC50 | MTT | 259 µM
C=C1[C@H](CO)[C@@H](O)C[C@@H]1n1cnc2c(=O)[nH]c(N)nc21 | MT-4 | ROD | EC50 | MTT | >4.59 µM
Cc1cn([C@H]2C[C@H](N=[N+]=[N-])[C@@H](CO)O2)c(=O)[nH]c1=O | MT-4 | ROD | EC50 | - | 0.022 µM
C#C[C@]1(CO)O[C@@H](n2cnc3c(=O)[nH]c(N)nc32)C[C@@H]1O | HeLa | ROD | EC50 | β-galactosidase | 0.026 µM
Cc1ccnc2c1NC(=O)c1cccnc1N2C1CC1 | HT4 + HT4-6C | ROD | EC50 | plaque count | >3.2 µM
CCCCCCCCCCCCCCCCCCOC1OC(COS(=O)(=O)O)C(OC2OC(COS(=O)(=O)O)C(OC3OC(COS(=O)(=O)O)C(OC4OC(COS(=O)(=O)O)C(OC5OC(COS(=O)(=O)O)C(OC6OC(COS(=O)(=O)O)C(OS(=O)(=O)O)C(OS(=O)(=O)O)C6O)C(OS(=O)(=O)O)C5O)C(O)C4OS(=O)(=O)O)C(O)C3OS(=O)(=O)O)C(OS(=O)(=O)O)C2O)C(OS(=O)(=O)O)C1O | MT-4 | ROD | EC50 | cytopathic effect / MTT | 1.4 µg/mL
O=C(O)P(=O)(O)O | PBMC | ROD | EC50 | - | 0.44 µM
CC(C)(C)[Si](C)(C)OC[C@H]1O[C@@H](n2ccc(=O)n(CC(=O)O)c2=O)[C@H](O[Si](C)(C)C(C)(C)C)[C@@H]1O | MT-4 | ROD | EC50 | cytopathic effect / trypan blue | >10 µM
Cc1cn([C@H]2C=C[C@@H](COP3(=O)Oc4ccccc4C(C(Cl)Cl)O3)O2)c(=O)[nH]c1=O | CEM + CEM TK- | - | EC50 | - | 27 µM
Cc1cc(C)c(Nc2nc(NC3CCN(Cc4ccccc4C)CC3)nc3nc[nH]c23)c(C)c1 | MT-4 | ROD | EC50 | MTT | >7.81 µM
CC(C)(C)[Si](C)(C)OC[C@H]1O[C@@H](n2cnc3c(=O)[nH]cnc32)[C@H](O[Si](C)(C)C(C)(C)C)C12OS(=O)(=O)C=C2N | MT-4 | ROD | EC50 | trypan blue | >4 µg/mL
Cc1ccc(CN2C(=O)CSC2c2c(Cl)cccc2Cl)o1 | MT-4 | ROD | EC50 | cytopathic effect | 9.56 µM
Cc1cn([C@@H]2O[C@H](CO[Si](C)(C)C(C)(C)C)[C@@H](O)[C@H]2O[Si](C)(C)C(C)(C)C)c(=O)n(CC#N)c1=O | CEM | ROD | EC50 | syncytia | >10 µM
CS(=O)(=O)c1ccc(OP(=O)(OC[C@@H]2CC[C@H](n3cnc4c(N)ncnc43)O2)OC[C@@H]2CC[C@H](n3cnc4c(N)ncnc43)O2)cc1 | MT-4 | ROD | EC50 | cytopathic effect / trypan blue | 84 µM
CC(=O)Oc1ccc(/C=C/C(=O)O[C@@H](C(=O)O)[C@@H](OC(=O)/C=C/c2ccc(OC(C)=O)c(OC(C)=O)c2)C(=O)O)cc1OC(C)=O | MT-4 | ROD | EC50 | - | 25.5 µM
Cc1cn([C@H]2C=C[C@@H](COP3(=O)Oc4ccccc4C(C)O3)O2)c(=O)[nH]c1=O | CEM + CEM TK- | - | EC50 | - | 35 µM
CC(C)(C)[Si](C)(C)OC[C@H]1O[C@@H](n2cnc3[nH]c(=O)[nH]c(=O)c32)[C@H](O[Si](C)(C)C(C)(C)C)C12OS(=O)(=O)C=C2N | MT-4 | ROD | EC50 | trypan blue | >4 µg/mL
Cc1nc(N2C(=O)CSC2c2c(F)cccc2F)ccc1Br | MT-4 | ROD | EC50 | cytopathic effect | 11.7 µM
CC(CC1CCCCC1)c1cc(=O)[nH]c(SCC(=O)c2ccccc2)n1 | MT-4 | ROD | EC50 | MTT | 151 µM
Cc1cn([C@H]2C=C[C@@H](COP(=O)(O)N[C@@H](CC(=O)O)C(=O)O)O2)c(=O)[nH]c1=O | CEM | ROD | EC50 | MTT | 6.55 µM
CC(C)(C)[Si](C)(C)OC[C@H]1O[C@@H](n2ccc(=O)n(CC(=O)O)c2=O)[C@H](O)[C@@H]1O[Si](C)(C)C(C)(C)C | CEM | ROD | EC50 | syncytia | >10 µM
Cn1cnc2c(ncn2[C@@H]2O[C@H](CO[Si](C)(C)C(C)(C)C)C3(OS(=O)(=O)C=C3N)[C@H]2O[Si](C)(C)C(C)(C)C)c1=O | MT-4 | ROD | EC50 | trypan blue | >100 µg/mL
C[C@]1(CO)O[C@@H](n2ccc(N)nc2=O)C[C@@H]1O | HeLa | EHO | EC50 | β-galactosidase | 0.0013 µM

Repeating the first 4 entries:

smiles | cells | strain | read-out | read by | value
Cc1c(C(C)CC2CCCCC2)nc(SCC(=O)c2ccc(O)cc2)[nH]c1=O | MT-4 | ROD | EC50 | MTT | 24 µM
Cc1cn([C@H]2C=C[C@@H](COP3(=O)Oc4ccccc4C(CCl)O3)O2)c(=O)[nH]c1=O | CEM + CEM TK- | - | EC50 | - | 22 µM
C#C[C@]1(CO)O[C@@H](n2cnc3c(=O)[nH]cnc32)C[C@@H]1O | HeLa | EHO | EC50 | β-galactosidase | 0.37 µM
CCc1c(CC2CCCCC2)nc(SCC(=O)c2ccccc2)[nH]c1=O | MT-4 | ROD | EC50 | MTT | 263 µM